Pooled drug test results. Numbers come from NIAID ChemDB, via PubChem.

Shared fields: whole-cell or culture tests; organism: HIV-1; cell line: MT-4; read-out: EC50

ECn: concentration that inhibits the pathogen or its effect by n%. An empty or dashed field is not shown. Conditions beyond the fields shown may differ between rows.

| SMILES | strain or isolate | changes | method | result |
|---|---|---|---|---|
| CCc1c(Cc2cc(C)cc(C)c2)n(COCC#Cc2ccccc2)c(=O)[nH]c1=O | IIIB | K103N + Y181C | MTT | 6 µM |
| Cc1c(C(C)c2c(F)cccc2F)nc(NN2CCCCCC2)[nH]c1=O | NL4-3 |  | MTT | 0.009 µM |
| C=C1C(n2cc(C)c(=O)[nH]c2=O)C=CC1(CO)CO |  |  |  | 66 µM |
| COc1cc2c(c3oc(=O)c(CBr)c(C)c13)[C@@H](OC(=O)C13CCC(C)(C(=O)O1)C3(C)C)[C@@H](OC(=O)C13CCC(C)(C(=O)O1)C3(C)C)C(C)(C)O2 | IIIB |  | cytopathic effect / XTT | 0.24 µM |
| N#CC1=CC2Nc3ccccc3C2N(c2ccc([N+](=O)[O-])cc2)C1=O | B-HXB2 |  | GFP / fluorescence | 0.25 µM |
| CC1=C[C@@H]2[C@@H]3C(=O)N(NC(=O)NC4CCCCC4)C(=O)[C@@H]3[C@H]1C[C@@H]2C(C)C | IIIB |  | cytopathic effect / MTT | >63 µM |
| Cc1cn([C@H]2C=C[C@@H](CO)O2)c(=O)[nH]c1=O |  |  | cytopathic effect | 1.2 µM |
| C[C@@H]1Cn2c(=O)[nH]c3cccc(c32)CN1 | IIIB |  | cytopathic effect / MTT | >901 µM |
| CCN(CC)CN1C(=O)C(=Nc2ccc(S(=O)(=O)Nc3ncnc(OC)c3OC)cc2)c2ccccc21 | LAI |  | cytopathic effect / MTT | >118 µg/mL |
| CC(C)CN(C[C@@H](O)[C@H](Cc1ccccc1)NC(=O)O[C@H]1CO[C@H]2OCC[C@H]21)S(=O)(=O)c1ccc2[nH]c(O)c(C=NCc3nc4ccccc4[nH]3)c2c1 | HXB2 |  | MTT | >0.4 µM |
| CC(C)(C)OC(=O)N[C@@H](Cc1ccccc1)C(=O)N1CCC(=O)[C@@H]1Sc1ccccc1 |  |  | syncytia | 50 µM |
| C=C1CN(S(=O)(=O)c2ccc(C)cc2)CCCN(C(C)CC)CCCN(S(=O)(=O)c2ccc(C)cc2)C1 | NL4-3 |  | p24 | 3.52 µM |
| CCc1c(Cc2cc(C)cc(C)c2)n(COCC#Cc2cccc(CO[Si](c3ccccc3)(c3ccccc3)C(C)(C)C)c2)c(=O)[nH]c1=O | IIIB | Y181C | MTT | 23 µM |
| CC1=C(C)CC(COCP(=O)(OCCSC(=O)C(C)(C)C)OCCSC(=O)C(C)(C)C)(n2ccc(N)nc2=O)C1 |  |  | XTT | 39 µM |
| COc1ncnc(NS(=O)(=O)c2ccc(N=C3C(=O)N(CN(C)C)c4ccccc43)cc2)c1OC | LAI |  | cytopathic effect / MTT | >2 µg/mL |
| CCn1cc(C(=O)O)c(=O)c2cc(F)c(N3CCN(CN4C(=O)C(=Nc5ccc(S(=O)(=O)Nc6nc(C)cc(C)n6)cc5)c5cc(F)ccc54)CC3)cc21 | IIIB |  | cytopathic effect / MTT | 19.12 µM |
| CC(C)CCC[C@@H](C)[C@H]1CC[C@H]2[C@@H]3CC[C@H]4C[C@@H](CCC=C(c5cc(Cl)c(O)c(C(=O)O)c5)c5cc(Cl)c(O)c(C(=O)O)c5)CC[C@]4(C)[C@H]3CC[C@]12C | IIIB |  | cytopathic effect / MTT | 1.8 µg/mL |
| CC(C)[C@]12C=C[C@](C)(CC1)[C@H]1C(=O)N(NC(=S)NC3CCCCC3)C(=O)[C@H]12 | IIIB |  | cytopathic effect / MTT | >53 µM |
| CC1=C(C)CC(COCP(=O)(O)O)(n2cnc3c(N)ncnc32)C1 |  |  | XTT | 97 µM |
| C=C1CN(S(=O)(=O)c2ccc(C)cc2)CCCN(Cc2cccnc2)CCCN(S(=O)(=O)c2ccc(C)cc2)C1 | NL4-3 |  | p24 | 5.6 µM |
| Cc1cn([C@H]2C[C@H](N=[N+]=[N-])[C@@H](CO)O2)c(=O)[nH]c1=O | IIIB |  | MTT | 0.01323 µM |
| C=C(Cc1ccccc1)CN1Cc2cccc3[nH]c(=O)n(c23)CC1C | IIIB |  | cytopathic effect / MTT | >572 µM |
| COc1cc2c(c3oc(=O)c(COC(C)=O)c(C)c13)[C@@H](OC(=O)C13CCC(C)(C(=O)O1)C3(C)C)[C@@H](OC(=O)C13CCC(C)(C(=O)O1)C3(C)C)C(C)(C)O2 | IIIB |  | cytopathic effect / XTT | 39.6 µM |
| COc1c(N2CCN(CN3C(=O)C(=Nc4ccc(S(=O)(=O)Nc5nc(C)cc(C)n5)cc4)c4ccccc43)C(C)C2)c(F)cc2c(=O)c(C(=O)O)cn(C3CC3)c12 | IIIB |  | cytopathic effect / MTT | 15.6 µM |
| CCc1nc(NCN2C(=O)C(=Nc3ccc(S(=O)(=O)Nc4ncnc(OC)c4OC)cc3)c3ccccc32)nc(N)c1-c1ccc(Cl)cc1 | LAI |  | cytopathic effect / MTT | >2 µg/mL |
| C=C(C)[C@@H]1C[C@@H](COC(=O)c2ccccc2)[C@@]23OC45OC1(O4)[C@@H]2[C@@H]1O[C@]1(CO)[C@@H](O)[C@@]1(O)[C@H]3[C@H]([C@H](C)[C@@H]1OC(=O)c1ccccc1)[C@H](C)CCCCCC[C@H]5O | NL4-3 |  | p24 / ELISA | 0.00006 µM |
| COc1ccc(C[C@H](NC(=O)OC(C)(C)C)C(=O)N2CCC(=O)[C@@H]2Sc2ccccc2)cc1 |  |  | syncytia | >100 µM |
| Cc1ccc(S(=O)(=O)N2CCCN(Cc3ccccc3)CCCN(S(=O)(=O)c3ccc(C)cc3)CC(CCl)C2)cc1 | NL4-3 |  | p24 | 2.2 µM |
| CC(C)=CCC/C(C)=C/CN1Cc2cccc3[nH]c(=O)n(c23)CC1C | IIIB |  | cytopathic effect / MTT | >44 µM |
| CC(C)(C)OC(=O)N[C@@H](Cc1ccc(OCc2ccccc2)cc1)C(=O)N1CCC(=O)[C@H]1Sc1ccccc1 |  |  | syncytia | 0.1 µM |
| C=C1CN(S(=O)(=O)c2ccc(C)cc2)CCCN(CCC(C)C)CCCN(S(=O)(=O)c2ccc(C)cc2)C1 | NL4-3 |  | p24 | 0.77 µM |
| COc1ccc(N2CCN(CN3C(=O)C(=Nc4ccc(S(=O)(=O)Nc5nc(C)cc(C)n5)cc4)c4cc(F)ccc43)CC2)cc1 | IIIB |  | cytopathic effect / MTT | >43.32 µM |
| Cc1ccc(S(=O)(=O)N2CCCN(Cc3ccccc3)CCCN(S(=O)(=O)c3ccc(C)cc3)CCC2)cc1 | NL4-3 |  | p24 | >15 µM |
| Cc1ccc(S(=O)(=O)c2c(C(N)=O)[nH]c3ccc(Cl)cc23)c(C)c1 | A17 | RT-K103N Y181C | cytopathic effect / MTT | 10 µM |
| CCn1cc(C(=O)O)c(=O)c2cc(F)c(N3CCN(CN4C(=O)C(=Nc5ccc(S(=O)(=O)Nc6nc(C)cc(C)n6)cc5)c5ccccc54)C(C)C3)c(F)c21 | IIIB |  | cytopathic effect / MTT | 15.9 µM |
| Cc1cn([C@H]2C[C@H](N=[N+]=[N-])[C@@H](CO)O2)c(=O)[nH]c1=O |  |  |  | 0.009 µM |
| Cc1ccc(-n2nnnc2SCC(=O)Nc2ccccc2Cl)cc1 |  |  | p24 | <10 µM |
| CCn1cc(C(=O)O)c(=O)c2cc(F)c(N3CCN(CN4C(=O)C(=Nc5ccc(S(=O)(=O)Nc6nc(C)cc(C)n6)cc5)c5cc(F)ccc54)C(C)C3)c(F)c21 | IIIB |  | cytopathic effect / MTT | 14.8 µM |
| CCc1c(Cc2cc(C)cc(C)c2)n(COC/C(Br)=C(\Br)c2ccccc2)c(=O)[nH]c1=O | IIIB | EFV-resistant (K103R V179D P225H) | MTT | 12 µM |
| Cc1cc(C)c(-n2nnnc2SCC(=O)Nc2ccc(Br)cc2F)c(C)c1 |  |  | p24 | <10 µM |
| COc1ncnc(NS(=O)(=O)c2ccc(N=C3C(=O)N(CN4CCCCC4)c4ccc(C)cc43)cc2)c1OC | LAI |  | cytopathic effect / MTT | >10.7 µg/mL |
| Cc1cc(C)nc(NS(=O)(=O)c2ccc(N=C3C(=O)N(CN4CCN(c5cc6c(cc5F)c(=O)c(C(=O)O)cn6C5CC5)CC4)c4ccc(F)cc43)cc2)n1 | IIIB |  | cytopathic effect / MTT | 30.12 µM |
| Cc1cc(C)c(-n2nnnc2SCC(=O)Nc2ccccc2N)c(C)c1 |  |  | p24 | <10 µM |
| Cc1ccccc1S(=O)(=O)c1c(C(N)=O)[nH]c2ccc(Cl)cc12 | N119 nevirapine-resistant (RT Y181C) | RT-Y181C | cytopathic effect / MTT | 0.16 µM |
| C=C1C(n2ccc(N)nc2=O)C=CC1(CO)CO |  |  |  | 10.67 µM |
| O=C(CSc1nnnn1-c1ccccc1-c1ccccc1)Nc1ccccc1Cl |  |  | p24 | <10 µM |
| C=C1CN(S(=O)(=O)c2ccc(N)cc2)CCCN(Cc2ccccc2)CCCN(S(=O)(=O)c2ccc(N)cc2)C1 | NL4-3 |  | p24 | >15 µM |
| CC(C)[C@]12C=C[C@](C)(CC1)[C@H]1C(=O)N(NC(=O)NC3CCCCC3)C(=O)[C@H]12 | IIIB |  | cytopathic effect / MTT | >72 µM |
| C=C1CN(S(=O)(=O)c2ccc(C)cc2)CCCN(C2CCCC2)CCCN(S(=O)(=O)c2ccc(C)cc2)C1 | NL4-3 |  | p24 | 6.39 µM |
| Cc1cn([C@H]2C=C[C@@H](CO)O2)c(=O)[nH]c1=O | IIIB |  | cytopathic effect / MTT | 0.65 µM |
| CC(C)[C@]12C=C[C@](C)(CC1)[C@H]1C(=O)N(N)C(=O)[C@H]12 | IIIB |  | cytopathic effect / MTT | >100 µM |
| CC1CC(C)CN(S(=O)(=O)c2ccccc2[N+](=O)[O-])C1 | B-HXB2 |  | GFP / fluorescence | 0.84 µM |
| Cc1c(COC(N)=O)c(=O)oc2c3c(ccc12)OC(C)(C)[C@H](OC(=O)C12CCC(C)(C(=O)O1)C2(C)C)[C@@H]3OC(=O)C12CCC(C)(C(=O)O1)C2(C)C | IIIB |  | cytopathic effect / XTT | 2.12 µM |
| C=C1CN(S(=O)(=O)c2ccc(C)cc2)CCCN(C(=O)OCCC)CCCN(S(=O)(=O)c2ccc(C)cc2)C1 | NL4-3 |  | p24 | 2.6 µM |
| CCc1c(Cc2cc(C)cc(C)c2)n(COC/C(=C/Sc2ccccc2)Sc2ccccc2)c(=O)[nH]c1=O | IIIB | K103N + Y181C | MTT | 12 µM |
| Cc1c(C[N+](=O)[O-])c(=O)oc2c3c(ccc12)OC(C)(C)[C@H](OC(=O)C12CCC(C)(C(=O)O1)C2(C)C)[C@@H]3OC(=O)C12CCC(C)(C(=O)O1)C2(C)C | IIIB |  | cytopathic effect / XTT | 0.0905 µM |